Potato spindle tuber viroid, loop 6: variant abundance in plants

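Three N. benthamiana plants were inoculated with the whole mutant pool. Progeny were sequenced from the inoculated region (day 5), the margin of the inoculated leaf (day 10) and systemic leaves (day 12).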

PSTVd intermediate strain, loop 6: wild type UGACCGCGAG, pool pattern UNNNCGNNNG; upper and lower strand joined, each 5' to 3', the first 5 letters being the upper strand, closing pairs included.

Values are reads per thousand in the sample; higher means more abundant, 0 means not found. Each site shows the three plants. "Pool" is the share in the plasmid pool used as inoculum, on the same scale. The inoculated region was read from the minus strand, the other sites from the plus strand. IR is the inoculated region, LM the leaf margin, Sys the systemic leaves.

{"sequence": "UCGACGUCUG", "pool": "0.458", "IR": "0.139 / 0.0898 / 0.148", "LM": "0 / 0 / 0", "Sys": "0 / 0 / 0.0205"}
{"sequence": "UCGACGUGAG", "pool": "0.327", "IR": "0.122 / 0.198 / 0.0553", "LM": "0 / 0 / 0.0464", "Sys": "0 / 0 / 0"}
{"sequence": "UCGACGUGCG", "pool": "0.105", "IR": "0.191 / 0.0719 / 0.129", "LM": "0 / 0 / 0", "Sys": "0 / 0 / 0"}
{"sequence": "UCGACGUGGG", "pool": "0.209", "IR": "0.0695 / 0.0898 / 0.0553", "LM": "0 / 0 / 0", "Sys": "0 / 0 / 0"}
{"sequence": "UCGACGUGUG", "pool": "0.327", "IR": "0.0521 / 0.108 / 0.0369", "LM": "0 / 0 / 0", "Sys": "0 / 0 / 0"}
{"sequence": "UCGACGUUAG", "pool": "0.405", "IR": "0.278 / 0.144 / 0", "LM": "0.0276 / 0 / 0", "Sys": "0 / 0 / 0"}
{"sequence": "UCGACGUUCG", "pool": "0.235", "IR": "0.104 / 0.0359 / 0.0922", "LM": "0.0552 / 0 / 0", "Sys": "0 / 0 / 0"}
{"sequence": "UCGACGUUGG", "pool": "0.261", "IR": "0.156 / 0.0180 / 0.0369", "LM": "0 / 0 / 0.0232", "Sys": "0 / 0 / 0"}
{"sequence": "UCGACGUUUG", "pool": "0.327", "IR": "0.122 / 0.0359 / 0.0553", "LM": "0 / 0 / 0", "Sys": "0 / 0 / 0"}
{"sequence": "UCGCCACAGG", "pool": "0.0131", "IR": "0 / 0 / 0", "LM": "0 / 0 / 0", "Sys": "0 / 0 / 0"}
{"sequence": "UCGCCGAAAG", "pool": "0.0654", "IR": "0.0695 / 0.144 / 0.184", "LM": "0.0552 / 0 / 0.0232", "Sys": "0 / 0 / 0"}
{"sequence": "UCGCCGAACG", "pool": "0.209", "IR": "0.0869 / 0.0539 / 0.0738", "LM": "0 / 0 / 0", "Sys": "0 / 0 / 0"}
{"sequence": "UCGCCGAAGG", "pool": "0.157", "IR": "0.0869 / 0.144 / 0.0184", "LM": "0 / 0 / 0", "Sys": "0 / 0 / 0"}
{"sequence": "UCGCCGAAUG", "pool": "0.275", "IR": "0.191 / 0.0898 / 0.0738", "LM": "0 / 0 / 0", "Sys": "0 / 0 / 0.0205"}
{"sequence": "UCGCCGACAG", "pool": "0.209", "IR": "0.174 / 0.0898 / 0.0369", "LM": "0 / 0 / 0.0464", "Sys": "0 / 0 / 0"}
{"sequence": "UCGCCGACCG", "pool": "0.144", "IR": "0.139 / 0.0898 / 0.0738", "LM": "0 / 0 / 0.0232", "Sys": "0 / 0 / 0"}
{"sequence": "UCGCCGACGG", "pool": "0.248", "IR": "0.104 / 0.162 / 0.111", "LM": "0 / 0 / 0.0232", "Sys": "0 / 0 / 0"}
{"sequence": "UCGCCGACUG", "pool": "0.327", "IR": "0.0348 / 0.0719 / 0.148", "LM": "0 / 0 / 0", "Sys": "0 / 0 / 0"}
{"sequence": "UCGCCGAGAG", "pool": "0.157", "IR": "0.834 / 0.485 / 0.516", "LM": "0.0828 / 0.0252 / 0", "Sys": "0 / 0 / 0"}
{"sequence": "UCGCCGAGCG", "pool": "0.222", "IR": "0.139 / 0.0539 / 0.0553", "LM": "0 / 0 / 0.0232", "Sys": "0 / 0 / 0"}
{"sequence": "UCGCCGAGGG", "pool": "0.157", "IR": "0.104 / 0.108 / 0.0738", "LM": "0 / 0 / 0", "Sys": "0 / 0 / 0"}
{"sequence": "UCGCCGAGUG", "pool": "0.235", "IR": "0.122 / 0.0719 / 0.129", "LM": "0 / 0 / 0", "Sys": "0 / 0 / 0"}
{"sequence": "UCGCCGAUAG", "pool": "0.235", "IR": "0.0695 / 0.0180 / 0.129", "LM": "0.0276 / 0 / 0.325", "Sys": "0 / 0 / 0"}
{"sequence": "UCGCCGAUCG", "pool": "0.418", "IR": "0.122 / 0.126 / 0.111", "LM": "0 / 0 / 0", "Sys": "0 / 0 / 0"}

The last 3 entries again:

sequence	pool	IR	LM	Sys
UCGCCGAGUG	0.235	0.122 / 0.0719 / 0.129	0 / 0 / 0	0 / 0 / 0
UCGCCGAUAG	0.235	0.0695 / 0.0180 / 0.129	0.0276 / 0 / 0.325	0 / 0 / 0
UCGCCGAUCG	0.418	0.122 / 0.126 / 0.111	0 / 0 / 0	0 / 0 / 0

For reference, wild type rose from 20.7 per thousand in the pool to 195, 198, 203 (inoculated region), 629, 591, 734 (leaf margin) and 942, 870, 868 (systemic leaves). With 36,220-57,551 reads a sample, very low values are single reads. Sequences that differ at fixed positions probably stem from PCR or sequencing errors, and defective variants can be carried along by functional ones.

Data from the supplement of Wu et al. 2024, doi:10.1371/journal.ppat.1012142.